Target: C. difficile TcdA holotoxin (Clostridioides difficile, UniProt P16154)
Assay: [3H] inositol hexakisphosphate binding assay
Parameters: species or system Clostridium difficile
Conditions: read-out: equilibrium binding affinity constant (Kd); 3H-InsP6 binding to purified TcdA holotoxin

By UniProt entry, the sequences of proteins in these tests, tags left out.
UniProt P16154, whole entry, looked up: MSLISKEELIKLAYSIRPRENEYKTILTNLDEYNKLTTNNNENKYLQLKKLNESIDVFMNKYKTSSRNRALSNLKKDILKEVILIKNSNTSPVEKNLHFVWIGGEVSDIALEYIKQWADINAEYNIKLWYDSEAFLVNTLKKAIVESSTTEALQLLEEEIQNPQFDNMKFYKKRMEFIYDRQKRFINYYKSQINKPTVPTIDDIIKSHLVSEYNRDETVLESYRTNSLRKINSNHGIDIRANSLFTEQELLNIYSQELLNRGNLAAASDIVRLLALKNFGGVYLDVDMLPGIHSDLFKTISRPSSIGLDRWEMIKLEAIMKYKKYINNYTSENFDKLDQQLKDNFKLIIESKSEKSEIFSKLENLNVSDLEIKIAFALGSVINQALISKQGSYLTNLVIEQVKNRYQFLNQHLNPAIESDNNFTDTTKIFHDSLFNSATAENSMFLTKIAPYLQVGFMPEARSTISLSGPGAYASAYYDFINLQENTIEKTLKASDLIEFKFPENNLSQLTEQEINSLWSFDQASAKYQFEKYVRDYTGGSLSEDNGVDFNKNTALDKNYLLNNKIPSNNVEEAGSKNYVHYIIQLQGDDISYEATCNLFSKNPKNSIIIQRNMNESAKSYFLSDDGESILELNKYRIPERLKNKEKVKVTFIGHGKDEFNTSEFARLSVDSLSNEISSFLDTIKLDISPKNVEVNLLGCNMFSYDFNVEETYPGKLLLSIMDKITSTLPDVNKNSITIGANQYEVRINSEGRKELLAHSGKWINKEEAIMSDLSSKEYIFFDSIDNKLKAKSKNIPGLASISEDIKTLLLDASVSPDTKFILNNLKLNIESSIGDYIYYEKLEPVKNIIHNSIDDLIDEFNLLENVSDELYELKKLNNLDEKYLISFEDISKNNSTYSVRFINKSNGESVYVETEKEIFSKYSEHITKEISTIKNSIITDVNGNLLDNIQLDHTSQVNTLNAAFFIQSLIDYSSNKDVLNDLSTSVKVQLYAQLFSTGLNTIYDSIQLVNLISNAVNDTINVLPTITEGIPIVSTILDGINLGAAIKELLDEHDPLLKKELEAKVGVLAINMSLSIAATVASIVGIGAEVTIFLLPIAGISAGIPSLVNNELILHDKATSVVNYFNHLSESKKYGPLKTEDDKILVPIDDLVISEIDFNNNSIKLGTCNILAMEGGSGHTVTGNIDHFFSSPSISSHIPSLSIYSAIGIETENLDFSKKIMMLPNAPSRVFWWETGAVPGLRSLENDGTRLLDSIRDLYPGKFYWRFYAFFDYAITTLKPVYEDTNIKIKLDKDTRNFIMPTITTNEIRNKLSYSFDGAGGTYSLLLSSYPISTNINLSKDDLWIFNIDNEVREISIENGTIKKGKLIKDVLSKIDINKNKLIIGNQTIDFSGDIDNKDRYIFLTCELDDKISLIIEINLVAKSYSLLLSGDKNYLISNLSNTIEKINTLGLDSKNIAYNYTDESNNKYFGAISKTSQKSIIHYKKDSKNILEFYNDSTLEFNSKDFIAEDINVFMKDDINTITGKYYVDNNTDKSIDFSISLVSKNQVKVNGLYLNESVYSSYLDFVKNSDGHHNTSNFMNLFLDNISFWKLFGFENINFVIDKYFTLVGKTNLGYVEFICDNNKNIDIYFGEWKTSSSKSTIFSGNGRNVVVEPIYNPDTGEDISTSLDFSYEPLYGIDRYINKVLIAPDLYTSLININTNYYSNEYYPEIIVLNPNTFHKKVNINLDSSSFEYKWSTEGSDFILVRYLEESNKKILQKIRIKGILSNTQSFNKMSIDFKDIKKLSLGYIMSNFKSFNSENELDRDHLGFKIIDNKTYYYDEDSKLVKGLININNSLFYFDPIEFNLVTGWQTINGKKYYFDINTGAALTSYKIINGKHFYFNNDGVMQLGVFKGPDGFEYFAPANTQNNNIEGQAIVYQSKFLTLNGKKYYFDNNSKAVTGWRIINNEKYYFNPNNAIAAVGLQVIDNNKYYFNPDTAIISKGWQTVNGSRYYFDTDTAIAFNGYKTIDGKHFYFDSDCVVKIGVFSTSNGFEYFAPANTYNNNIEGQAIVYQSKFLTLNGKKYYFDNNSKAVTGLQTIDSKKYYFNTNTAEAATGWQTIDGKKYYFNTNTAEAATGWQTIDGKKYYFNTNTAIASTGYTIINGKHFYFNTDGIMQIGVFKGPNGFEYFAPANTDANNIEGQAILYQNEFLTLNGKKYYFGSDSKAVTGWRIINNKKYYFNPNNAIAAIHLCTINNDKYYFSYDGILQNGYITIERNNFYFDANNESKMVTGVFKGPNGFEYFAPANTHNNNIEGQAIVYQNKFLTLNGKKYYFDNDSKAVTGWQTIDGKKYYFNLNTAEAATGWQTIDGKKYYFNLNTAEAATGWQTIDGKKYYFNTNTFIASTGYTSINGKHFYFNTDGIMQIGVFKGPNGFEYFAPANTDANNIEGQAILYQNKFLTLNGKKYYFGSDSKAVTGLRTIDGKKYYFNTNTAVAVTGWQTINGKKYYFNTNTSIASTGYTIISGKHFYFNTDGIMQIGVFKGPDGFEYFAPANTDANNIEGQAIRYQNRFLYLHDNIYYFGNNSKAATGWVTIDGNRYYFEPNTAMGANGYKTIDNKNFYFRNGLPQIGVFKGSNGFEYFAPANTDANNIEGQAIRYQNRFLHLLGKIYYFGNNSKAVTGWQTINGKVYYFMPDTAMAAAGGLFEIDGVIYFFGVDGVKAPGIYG

Work on `O=P(O)(O)OC1C(OP(=O)(O)O)C(OP(=O)(O)O)C(OP(=O)(O)O)C(OP(=O)(O)O)C1OP(=O)(O)O` (stereo not shown) [InsP6, inositol hexakisphosphate] yielded a Kd of 62.6 nM.
